Patent publication US4436750A, “12'-Hydroxyverrucarin J and iso-satratoxin H” (dated 1984)

Key:
[1] = test system: KB cells; assay: Zones of inhibition of KB cells in agar; settings: 6.5 mm paper disks
[2] = test system: L1210 cells; assay: Inhibition of growth of L1210 cells in vitro; settings: 0.067 μg/ml
[3] = test system: P388 Lymphatic Leukemia; assay: Antitumor activity against P388 Lymphatic Leukemia in Mice; settings: QD × 5, values ≥125 considered active
[4] = test system: human colon adenocarcinoma; assay: Zones of inhibition of human colon adenocarcinoma (HCA) in agar; settings: 6.5 mm paper disks
[5] = test system: Kloeckera brevis; assay: Antimicrobial activity, diameter of inhibition zone, Kloeckera brevis; settings: 12.7 mm disks
[6] = test system: Kloeckera africana; assay: Antimicrobial activity, diameter of inhibition zone, Kloeckera africana; settings: 12.7 mm disks
[7] = test system: Rhodotorio glutinis; assay: Antimicrobial activity, diameter of inhibition zone, Rhodotorio glutinis; settings: 12.7 mm disks
[8] = test system: Endomycopsis fibuliger; assay: Antimicrobial activity, diameter of inhibition zone, Endomycopsis fibuliger; settings: 12.7 mm disks
[9] = test system: Saccharomyces fragilis; assay: Antimicrobial activity, diameter of inhibition zone, Saccharomyces fragilis; settings: 12.7 mm disks
[10] = test system: Saccharomyces italicus; assay: Antimicrobial activity, diameter of inhibition zone, Saccharomyces italicus; settings: 12.7 mm disks
[11] = test system: Pichia membranaefaciens; assay: Antimicrobial activity, diameter of inhibition zone, Pichia membranaefaciens; settings: 12.7 mm disks
[12] = test system: Saccharomyces cerevisiae; assay: Antimicrobial activity, diameter of inhibition zone, Saccharomyces cerevisiae; settings: 12.7 mm disks
[13] = test system: Saccharomycoides ludwigii; assay: Antimicrobial activity, diameter of inhibition zone, Saccharomycoides ludwigii; settings: 12.7 mm disks

| Substance | Inhibitory Zone ([1]; 10 μg/ml) [mm] | Inhibitory Zone ([1]; 33 μg/ml) [mm] | Inhibitory Zone ([1]; 100 μg/ml) [mm] | inhibition of the growth of L1210 cells in vitro [2] | Inhibitory Zone ([4]; 10 μg/ml) [mm] | Inhibitory Zone ([4]; 33 μg/ml) [mm] | Inhibitory Zone ([4]; 100 μg/ml) [mm] | Diameter of Inhibition Zone ([5]; 0.1 mg/ml) | Diameter of Inhibition Zone ([5]; 0.5 mg/ml) | Diameter of Inhibition Zone ([6]; 0.1 mg/ml) | Diameter of Inhibition Zone ([6]; 0.5 mg/ml) | Diameter of Inhibition Zone ([7]; 0.1 mg/ml) | Diameter of Inhibition Zone ([7]; 0.5 mg/ml) | Diameter of Inhibition Zone ([8]; 0.1 mg/ml) | Diameter of Inhibition Zone ([8]; 0.5 mg/ml) | Diameter of Inhibition Zone ([9]; 0.1 mg/ml) | Diameter of Inhibition Zone ([9]; 0.5 mg/ml) | Diameter of Inhibition Zone ([10]; 0.1 mg/ml) | Diameter of Inhibition Zone ([10]; 0.5 mg/ml) | Diameter of Inhibition Zone ([11]; 0.1 mg/ml) | also measured |
| --- | --- | --- | --- | --- | --- | --- | --- | --- | --- | --- | --- | --- | --- | --- | --- | --- | --- | --- | --- | --- | --- |
| iso-satratoxin H | 40 | 44 | 44 | more than 95% | 12 | 17 | 21 | 0 | 18.0 | 0 | 20.0 | 20.0 | 25.0 | 26.0 | 29.0 | 25.0 | 29.0 | 0 | 17.0 | 0 | T/C percent MST ([3]; test - 1, 0.5 mg/kg): 138%; T/C percent MST ([3]; test - 1, 1.0 mg/kg): 152%; T/C percent MST ([3]; test - 1, 2.0 mg/kg): 171%; T/C percent MST ([3]; test - 2, 0.25 mg/kg): 125%; T/C percent MST ([3]; test - 2, 0.5 mg/kg): 144%; T/C percent MST ([3]; test - 2, 1.0 mg/kg): 177%; T/C percent MST ([3]; test - 2, 2.0 mg/kg): 198%; Diameter of Inhibition Zone ([11]; 0.5 mg/ml): 0; Diameter of Inhibition Zone ([12]; 0.1 mg/ml): 0; Diameter of Inhibition Zone ([12]; 0.5 mg/ml): 17.0; Diameter of Inhibition Zone ([13]; 0.1 mg/ml): 23.0; Diameter of Inhibition Zone ([13]; 0.5 mg/ml): 29.0 |
| 12'-hydroxyverrucarin J | 30 | 32 | 36 | more than 95% | 13 | 20 | 25 | 0 | 14.0 | 0 | 22.5 | 20.5 | 29.0 | 17.0 | 25.0 | 27.0 | 30.0 | 16.5 | 19.5 | 0 | Diameter of Inhibition Zone ([11]; 0.5 mg/ml): 13.5; Diameter of Inhibition Zone ([12]; 0.1 mg/ml): 13.5; Diameter of Inhibition Zone ([12]; 0.5 mg/ml): 20.0; Diameter of Inhibition Zone ([13]; 0.1 mg/ml): 25.0; Diameter of Inhibition Zone ([13]; 0.5 mg/ml): 31.0 |
